Test results published in paper PMC5505973.
For at least one entry, the source does not settle the construct or the ends of the probe.

System: Tal7 (His-Tal7) (Xanthomonas oryzae pv. oryzicola RS105)
Assay: EMSA
Conditions: unlabeled self-competition 5x, 20x, 100x; recombinant protein; protein details: N-terminal His (pET30a); label: 3' biotin

Sequence	binding result
AGATAAAAGCGAAACCCTCCCTCCCCT (double strand) [12g42970A]	binds
GTATACAAAGAGAACGCATCCCCCCAT (double strand) [09g29100A]	binds
